Measured values: paper PMC12121772
The exact form of at least one protein or probe is not confirmed. For part of these data: No signal at the amounts used counts as a negative.

Assays:
[1] = tested on: NSs2 (Recilia dorsalis bunyavirus (RdBV)); assay: EMSA; settings: EMSA: 5x binding buffer printed as 1 M Tris-HCl pH 7.5, 5 M NaCl, 1 M KCl, 1 M MgCl2, 0.5 M EDTA pH 8.0, 10 mg/ml BSA (likely stock concentrations), recombinant protein
[2] = tested on: RdMYC (Recilia dorsalis); assay: EMSA; settings: EMSA: 5x binding buffer printed as 1 M Tris-HCl pH 7.5, 5 M NaCl, 1 M KCl, 1 M MgCl2, 0.5 M EDTA pH 8.0, 10 mg/ml BSA (likely stock concentrations); recombinant protein; label: Cy5

Sequence | binding result [1] | binding result ([1]; label: Cy5) | binding result [2]
TTTGGCGCCCTCTATCTTGTGCGCCCCCGGGCAAAAACCCAGTGTGCCCA (double strand) [P3mutant (CACGTG to CAAAAA)] | no binding |  | 
TTTGGCGCCCTCTATCTTGTGCGCCCCCGGGCACGTGCCCAGTGTGCCCA (double strand) [RdSina promoter P3 probe] |  | binds | binds
